Experimental data from PMC10855908 (International Journal of Molecular Sciences, 2024).

Legend:
C. perfringens MLG0418 = test: MIC microtitration assay; format: cell-based, Clostridium perfringens
C. perfringens MLG0618 = test: MIC microtitration assay; format: cell-based, Clostridium perfringens
C. perfringens MLG0712 = test: MIC microtitration assay; format: cell-based, Clostridium perfringens
C. perfringens MLG1108 = test: MIC microtitration assay; format: cell-based, Clostridium perfringens
C. perfringens MLG1619 = test: MIC microtitration assay; format: cell-based, Clostridium perfringens
C. perfringens MLG1819 = test: MIC microtitration assay; format: cell-based, Clostridium perfringens
C. perfringens MLG2203 = test: MIC microtitration assay; format: cell-based, Clostridium perfringens
C. perfringens MLG2314 = test: MIC microtitration assay; format: cell-based, Clostridium perfringens
C. perfringens MLG2919 = test: MIC microtitration assay; format: cell-based, Clostridium perfringens
C. perfringens MLG3111 = test: MIC microtitration assay; format: cell-based, Clostridium perfringens
C. perfringens MLG3406 = test: MIC microtitration assay; format: cell-based, Clostridium perfringens
C. perfringens MLG4201 = test: MIC microtitration assay; format: cell-based, Clostridium perfringens
C. perfringens MLG4206 = test: MIC microtitration assay; format: cell-based, Clostridium perfringens
C. perfringens MLG5719 = test: MIC microtitration assay; format: cell-based, Clostridium perfringens
C. perfringens MLG5806 = test: MIC microtitration assay; format: cell-based, Clostridium perfringens
C. perfringens MLG6907 = test: MIC microtitration assay; format: cell-based, Clostridium perfringens
C. perfringens MLG7009 = test: MIC microtitration assay; format: cell-based, Clostridium perfringens
C. perfringens MLG7307 = test: MIC microtitration assay; format: cell-based, Clostridium perfringens
C. perfringens MLG7309 = test: MIC microtitration assay; format: cell-based, Clostridium perfringens
C. perfringens MLG7814 = test: MIC microtitration assay; format: cell-based, Clostridium perfringens
[1] = test system: Enterococcus cecorum CECO 0009; test: MIC microtitration assay; format: cell-based
[2] = test system: Enterococcus faecalis ATCC 29212; test: MIC microtitration assay; format: cell-based
[3] = test system: Listeria monocytogenes ATCC 1911; test: MIC microtitration assay; format: cell-based
[4] = test system: Pseudomonas aeruginosa ATCC 27855; test: MIC microtitration assay; format: cell-based
[5] = test system: Staphylococcus aureus ATCC 6538; test: MIC microtitration assay; format: cell-based
[6] = test system: Staphylococcus aureus C411 (methicillin-resistant S. aureus); test: MIC microtitration assay; format: cell-based
[7] = test system: Streptococcus pyogenes ATCC 19615; test: MIC microtitration assay; format: cell-based
Streptococcus suis C2058 = test: MIC microtitration assay; format: cell-based
[8] = test system: L. monocytogenes ATCC1911; test: Agar well diffusion; format: cell-based, Listeria monocytogenes; details: Mueller–Hinton soft agar, 80 μL of enterocin at 200 μg/mL, 24 h 37 °C, dash = not active
E. faecalis ATCC29212 = test: Agar well diffusion; format: cell-based, Enterococcus faecalis; details: Mueller–Hinton soft agar, 80 μL of enterocin at 200 μg/mL, 24 h 37 °C, dash = not active
E. cecorum C0009 = test: Agar well diffusion; format: cell-based, Enterococcus cecorum; details: Mueller–Hinton soft agar, 80 μL of enterocin at 200 μg/mL, 24 h 37 °C, dash = not active
S. suis C2058 = test: Agar well diffusion; format: cell-based, Streptococcus suis; details: Mueller–Hinton soft agar, 80 μL of enterocin at 200 μg/mL, 24 h 37 °C, dash = not active
S. pyogenes ATCC19615 = test: Agar well diffusion; format: cell-based, Streptococcus pyogenes; details: Mueller–Hinton soft agar, 80 μL of enterocin at 200 μg/mL, 24 h 37 °C, dash = not active
S. aureus ATCC6538 = test: Agar well diffusion; format: cell-based, Staphylococcus aureus; details: Mueller–Hinton soft agar, 80 μL of enterocin at 200 μg/mL, 24 h 37 °C, dash = not active
S. aureus C411 = test: Agar well diffusion; format: cell-based, Staphylococcus aureus; details: S. aureus C411 (methicillin-resistant); Mueller–Hinton soft agar, 80 μL of enterocin at 200 μg/mL, 24 h 37 °C; dash = not active
P. aeruginosa ATCC27855 = test: Agar well diffusion; format: cell-based, Pseudomonas aeruginosa; details: Mueller–Hinton soft agar, 80 μL of enterocin at 200 μg/mL, 24 h 37 °C, dash = not active

Structure (SMILES): CC[C@H](C)[C@H](NC(=O)[C@H](Cc1c[nH]cn1)NC(=O)[C@H](CCCCN)NC(=O)[C@H](CCCCN)NC(=O)[C@@H](NC(=O)[C@H](Cc1c[nH]c2ccccc12)NC(=O)[C@H](CCC(=O)O)NC(=O)[C@@H](NC(=O)[C@@H](NC(=O)[C@H](CCCCN)NC(=O)[C@H](CC(N)=O)NC(=O)[C@@H](NC(=O)[C@H](C)NC(=O)[C@H](Cc1c[nH]c2ccccc12)NC(=O)CNC(=O)[C@H](CCC(=O)O)NC(=O)CNC(=O)[C@@H](NC(=O)[C@H](Cc1ccccc1)NC(=O)[C@H](CCC(N)=O)NC(=O)[C@H](CCSC)NC(=O)[C@@H](NC(=O)[C@H](CCC(N)=O)NC(=O)[C@H](CCCCN)NC(=O)[C@H](Cc1ccc(O)cc1)NC(=O)[C@H](Cc1ccc(O)cc1)NC(=O)[C@H](CCCCN)NC(=O)[C@H](CCCCN)NC(=O)[C@@H](NC(=O)[C@@H](NC(=O)[C@@H]1CCCN1C(=O)[C@H](Cc1c[nH]c2ccccc12)NC(=O)CNC(=O)[C@H](Cc1ccccc1)NC(=O)[C@H](CCCCN)NC(=O)[C@H](C)NC(=O)[C@@H](NC(=O)[C@H](CC(C)C)NC(=O)[C@H](CCCCN)NC(=O)[C@H](C)NC(=O)[C@@H](NC(=O)[C@H](C)NC(=O)CNC(=O)[C@@H](N)CCSC)[C@@H](C)CC)C(C)C)[C@@H](C)CC)C(C)C)[C@@H](C)CC)[C@@H](C)CC)[C@@H](C)CC)[C@@H](C)CC)[C@@H](C)CC)[C@@H](C)CC)C(=O)O [Enterocin L50A]
- MIC (C. perfringens MLG0418): 6.25 µg/mL (≈ 1.2 µM)
- MIC (C. perfringens MLG0618): 6.25 µg/mL (≈ 1.2 µM)
- MIC (C. perfringens MLG0712): 1.56 µg/mL (≈ 0.301 µM)
- MIC (C. perfringens MLG1108): 3.12 µg/mL (≈ 0.601 µM)
- MIC (C. perfringens MLG1619): 12.5 µg/mL (≈ 2.41 µM)
- MIC (C. perfringens MLG1819): 6.25 µg/mL (≈ 1.2 µM)
- MIC (C. perfringens MLG2203): 12.5 µg/mL (≈ 2.41 µM)
- MIC (C. perfringens MLG2314): 3.12 µg/mL (≈ 0.601 µM)
- MIC (C. perfringens MLG2919): 6.25 µg/mL (≈ 1.2 µM)
- MIC (C. perfringens MLG3111): 3.12 µg/mL (≈ 0.601 µM)
- MIC (C. perfringens MLG3406): 6.25 µg/mL (≈ 1.2 µM)
- MIC (C. perfringens MLG4201): 6.25 µg/mL (≈ 1.2 µM)
- MIC (C. perfringens MLG4206): 6.25 µg/mL (≈ 1.2 µM)
- MIC (C. perfringens MLG5719): 6.25 µg/mL (≈ 1.2 µM)
- MIC (C. perfringens MLG5806): 6.25 µg/mL (≈ 1.2 µM)
- MIC (C. perfringens MLG6907): 12.5 µg/mL (≈ 2.41 µM)
- MIC (C. perfringens MLG7009): 6.25 µg/mL (≈ 1.2 µM)
- MIC (C. perfringens MLG7307): 1.56 µg/mL (≈ 0.301 µM)
- MIC (C. perfringens MLG7309): 6.25 µg/mL (≈ 1.2 µM)
- MIC (C. perfringens MLG7814): 12.5 µg/mL (≈ 2.41 µM)
- MIC [1]: 1.56 µg/mL (≈ 0.301 µM)
- MIC [2]: 3.12 µg/mL (≈ 0.601 µM)
- MIC [3]: <0.19 µg/mL
- MIC [4]: 12.5 µg/mL (≈ 2.41 µM)
- MIC [5]: 6.25 µg/mL (≈ 1.2 µM)
- MIC [6]: 12.5 µg/mL (≈ 2.41 µM)
- MIC [7]: 0.78 µg/mL (≈ 0.15 µM)
- MIC (Streptococcus suis C2058): 1.56 µg/mL (≈ 0.301 µM)
- Inhibition halos [8]: 15 mm
- Inhibition halos (E. faecalis ATCC29212): 15 mm
- Inhibition halos (E. cecorum C0009): 28 mm
- Inhibition halos (S. suis C2058): 15 mm
- Inhibition halos (S. pyogenes ATCC19615): 26 mm
- Inhibition halos (S. aureus ATCC6538): 15 mm
- Inhibition halos (S. aureus C411): 13 mm
- Inhibition halos (P. aeruginosa ATCC27855): 14 mm

≈ marks a conversion by molar mass, not a printed value.
